Common to all, as to experiment: cell-based or functional assay
Experiment [1] addresses human Nav1.7 voltage-gated sodium channel (human) (UniProt Q15858).
Experiment [2] has as its target human voltage-gated sodium channel Nav1.7 (human) (UniProt Q15858).
The target in experiment [3] is human voltage-gated sodium channel Nav1.5 (human) (UniProt Q14524).
The target in experiment [4] is human voltage-gated sodium channel Nav1.3 (human) (UniProt Q9NY46).
In experiment [5] the target is human voltage-gated sodium channel Nav1.4 (human) (UniProt P35499).

Bounds are passed on as bounds.

In the case of “Homodimeric Peptide No. 2 (peptide; modification not given)”, the Nav1.7 PX IC50 in experiment [1] was 0.241 nM.

For “Pra-[Nle6; Gly28]JzTx-V(1-29) (peptide; modification not given)”, the PX hNav1.7 Tonic IC50 in experiment [1] was 3.14 nM.

In experiment [1], “Homodimeric Conjugate No. 6 (peptide; modification not given)” gave a PX hNav1.7 Tonic IC50 of 0.414 nM.

Consider “Pra-[Nle6; hPhe7; Glu28]JzTx-V(1-29) (peptide; modification not given)”, for which the PX hNav1.7 Tonic IC50 in experiment [1] was greater than 1000 nM.

Substance “Pra-[Nle6; 5-BrW7; Glu28]JzTx-V(1-29) (peptide; modification not given)” came in with a PX hNav1.7 Tonic IC50 in experiment [1] of 540 nM.

For the substance “[Ala7]JzTx-V(1-29) (peptide; modification not given)”, the IC50 (IonWorks Quattro) was 150 nM in experiment [2], greater than 5000 nM in experiment [3], 940 nM in experiment [4] and 690 nM in experiment [5].

For “[Glu20;Nle24;Tyr28]JzTx-V(1-29) (peptide; modification not given)”, the IC50, IonWorks Quattro electrophysiology in experiment [2], in experiment [3], in experiment [4] and in experiment [5] was greater than 5 µM throughout.

In the case of “[Glu20;Tyr28;1-Nal29]JzTx-V(1-29) (peptide; modification not given)”, the IC50, IonWorks Quattro electrophysiology in experiment [2] came to 0.05 µM; in experiment [3] it was 4.6 µM; in experiment [4], 2.1 µM; in experiment [5] it was 4.6 µM. The Nav1.4/Nav1.7 (ratio of IC50) in experiment [5] was 91 fold.

In the case of “[Arg1]JzTx-V(1-29) (peptide; modification not given)”, the IC50 (IonWorks Quattro) in experiment [2] worked out at 5 nM; in experiment [3] it was 1800 nM; in experiment [4], 40 nM; in experiment [5], 120 nM.

For “[Arg17]JzTx-V(1-29) (peptide; modification not given)”, the IC50 (IonWorks Quattro) in experiment [2] was 14 nM; in experiment [3], 950 nM; in experiment [4], 40 nM; in experiment [5], 60 nM.

Take “[Arg27]JzTx-V(1-29) (peptide; modification not given)”: the IC50 (IonWorks Quattro) in experiment [2] is 28 nM; in experiment [3], greater than 5000 nM; in experiment [4], 100 nM; in experiment [5] it was 230 nM.

With “[Arg29]JzTx-V(1-29) (peptide; modification not given)”, the IC50 (IonWorks Quattro) in experiment [2] was 67 nM; in experiment [3], greater than 5000 nM; in experiment [4], 1300 nM; in experiment [5] it was 1100 nM.

For the substance “[Lys23]JzTx-V(1-29) (peptide; modification not given)”, the IC50 (IonWorks Quattro) in experiment [2] was found to be 240 nM; in experiment [3] it was 4100 nM; in experiment [4], 140 nM; in experiment [5], 290 nM.

Turning to “[1-Nal17]JzTx-V(1-29) (peptide; modification not given)”, the IC50 (IonWorks Quattro) was 33 nM in experiment [2], 2200 nM in experiment [3], 110 nM in experiment [4] and 130 nM in experiment [5].

Consider “[Arg7]JzTx-V(1-29) (peptide; modification not given)”, for which the IC50 (IonWorks Quattro) in experiment [2] is 53 nM; in experiment [3], greater than 5000 nM; in experiment [4], 80 nM; in experiment [5] it was 400 nM.

On to “[Glu20;Nva24;Tyr28]JzTx-V(1-29) (peptide; modification not given)”, for which the IC50, IonWorks Quattro electrophysiology in experiment [2], in experiment [3], in experiment [4] and in experiment [5] was greater than 5 µM throughout.

For “[Glu20;Tyr28;Nle29]JzTx-V(1-29) (peptide; modification not given)”, the IC50, IonWorks Quattro electrophysiology is 0.079 µM in experiment [2], greater than 5 µM in experiment [3], 4 µM in experiment [4] and greater than 5 µM in experiment [5].

The record behind these values is patent publication US20160024159A1, “Potent and selective inhibitors of Nav1.7” (published 2016).
